Compound potency records, mixed from different reports. Data source: NIAID ChemDB in PubChem.

All rows: growth or infection tests; agent: Mycobacterium tuberculosis

ECn: concentration that inhibits the pathogen or its effect by n%.

compound	strain	read by	endpoint	tested at	result
CCCCCCC#Cc1cncc(-c2nnc(SCc3cccc([N+](=O)[O-])c3)n2C)c1		resazurin	EC50		31 µM
COCCN1OCC(N)C1=O			MIC		>2500 µM
Cc1ccnc(NS(=O)(=O)c2ccc(NC3=CC(=O)C(=O)c4ccccc43)cc2)n1	H37Rv	resazurin	MIC bound		>6.25 µg/mL
CP(=O)(c1ccccc1)N1CCN(C2c3ccccc3-c3ccccc32)CC1	H37Rv	broth dilution	MIC		>25.7 µM
O=[N+]([O-])c1ccc(N/N=C/c2ccc3c(c2)OCO3)nc1	H37Rv	BACTEC	MIC bound		>12.5 µg/mL
Cc1cc(O)c(-c2ccc(F)cc2)c(=O)[nH]1	H37Ra		MIC		64 µg/mL
N#Cc1c(-c2ccc([N+](=O)[O-])o2)noc1N			MIC		3 µg/mL
NNC(=O)c1ccncc1	H37Rv	resazurin	MIC90		0.81 µM
NC1CON(CCOCc2ccccc2)C1=O			MIC		>2500 µM
NC(=O)C1CON=C1c1ccc([N+](=O)[O-])o1			MIC		1 µg/mL
CCCCN(CCCC)CCCOC(=O)c1ccc2oc3ccc(C(=O)OCCCN(CCCC)CCCC)cc3c2c1	H37Rv	BACTEC	inhibition	12.5 µg/mL	99%
CCN(CC)Cc1c2c(O)c3c(O)c(C)c4c(c3c1O)C(=O)[C@@](C)(O/C=C/[C@H](OC)[C@@H](C)[C@@H](OC(C)=O)[C@H](C)[C@H](O)[C@H](C)[C@@H](O)[C@@H](C)/C=C/C=C(/C)C(=O)N2)O4			MIC		0.18 µg/mL
NC1CON(CCF)C1=O			MIC		>2500 µM
CCCCCCCCCCCCCCCCCC(=O)O	H37Rv	agar	MIC		>350 µM
C=CCSc1nc2ccccc2[nH]1	My 331/88		MIC		500 µM
CO[C@H]1/C=C/O[C@@]2(C)Oc3c(C)c(O)c4c(=O)c(c5oc6cc(N7CCN(CC(C)C)CC7)cc(=O)c6nc5c4c3=C2O)NC(=O)/C(C)=C\C=C\[C@H](C)[C@H](O)[C@@H](C)[C@@H](O)[C@@H](C)[C@H](OC(C)=O)[C@@H]1C	H37Rv		MIC		0.017 µg/mL
O=C(Cc1ccccc1)N/N=C(\c1nc2ccc([N+](=O)[O-])cc2[nH]c1=O)C(O)c1ccco1	H37Rv	resazurin	inhibition	6.25 µg/mL	-120%
CO[C@H]1/C=C/O[C@@]2(C)Oc3c(C)c(O)c4c(O)c(c(SCCN=C(N)N)c(O)c4c3C2=O)NC(=O)/C(C)=C\C=C\[C@H](C)[C@H](O)[C@@H](C)[C@@H](O)[C@@H](C)[C@H](OC(C)=O)[C@@H]1C			MIC		1 µg/mL
CN(Cc1ccccc1)C(=S)S	H37Rv	BACTEC	MIC bound		>12.5 µg/mL
S=c1[nH]c2ccccc2[nH]1	My 331/88		MIC		1000 µM
CC1COc2c(N3CCN(C)CC3)c(F)cc3c(=O)c(C(=O)O)cn1c23	20 strains		MIC50		0.02 µg/mL
O=[N+]([O-])c1ccc(C2=NOC3(N4CCCC4)CCCCC23)o1			MIC		0.01 µg/mL
COc1ccc(CSc2nc3ccccc3[nH]2)cc1	My 331/88		MIC		>215 µM
COC1=NC2=CC(=O)c3c(c(O)c(C)c4c3C(=O)[C@@](C)(O/C=C/[C@H](OC)[C@@H](C)[C@@H](OC(C)=O)[C@H](C)[C@H](O)[C@H](C)[C@@H](O)[C@@H](C)/C=C/C=C\1C)O4)C2=O			MIC		>10 µg/mL
Cc1c(NC(=O)C(C)Sc2nnc(-c3ccco3)n2-c2ccc(Cl)cc2)c(=O)n(-c2ccccc2)n1C	H37Rv	resazurin	MIC		>6.25 µg/mL
COC(=O)c1nc(=S)[nH]c(C(=O)OC)c1C(=O)c1c(C)[nH]c2ccccc12	H37Rv	BACTEC	inhibition	12.5 µg/mL	0%
CCCCCCCCOc1cncc(-c2nnc(SCc3ccc(Cl)cc3)n2C)c1		resazurin	EC50		3.5 µM
CN1C(=O)CCCCCCCCCCSc2ccccc21	H37Rv	BACTEC	MIC		≥12.5 µg/mL
CCC(C)N1CCN(c2cc(=O)c3nc4c(oc3c2)c2c(=O)c3c(O)c(C)c5c(c34)=C(O)[C@@](C)(O/C=C/[C@H](OC)[C@@H](C)[C@@H](OC(C)=O)[C@H](C)[C@H](O)[C@H](C)[C@@H](O)[C@@H](C)/C=C/C=C(/C)C(=O)N2)O5)CC1	H37Rv		MIC		0.017 µg/mL
CCN(CC)CCNc1ccc(C)c2sc3c(OC)cccc3c(=O)c12	H37Rv	BACTEC	MIC bound		≤12.5 µg/mL
CO[C@H]1/C=C/O[C@@]2(C)Oc3c(C)c(O)c4c(O)c(c(C=O)c(O)c4c3C2=O)NC(=O)/C(C)=C\C=C\[C@H](C)[C@H](O)[C@@H](C)[C@@H](O)[C@@H](C)[C@H](O)[C@@H]1C			MIC		0.5 µg/mL
COc1ccc(C(=O)Nc2sc(Cc3ccc(OCc4c(Cl)cccc4Cl)cc3)cc2C(=O)O)cc1	H37Rv	resazurin	MIC90		>128 µM
CN(O)C(=O)CN1OCC(N)C1=O			MIC		>2500 µM
Clc1ccccc1CSc1nc2ccccc2[nH]1	My 331/88		MIC		>125 µM
O=[N+]([O-])c1ccc(C2=NOC(N3CCCCC3)C2c2ccccc2)o1			MIC		3 µg/mL
Cc1c(NC(=O)CSc2nnc(-c3ccco3)n2C2CCCCC2)c(=O)n(-c2ccccc2)n1C	H37Rv	resazurin	inhibition	6.25 µg/mL	inactive
O=C(Nc1sc(Cc2ccc(OCc3c(Cl)cccc3Cl)cc2)cc1C(=O)O)c1ccccc1F	H37Rv	resazurin	MIC90		7.7 µM
COc1ccc2c(c1)-c1ccccc1C2N1CCN(C(=O)c2ccccc2)CC1	H37Rv	broth dilution	MIC		>26 µM
O=[N+]([O-])c1cccc(CSc2nc3ccccc3[nH]2)c1	My 331/88		MIC		>32 µM
CC(C)OC(=S)SSC(=S)NCCNC(=S)SSC(=S)OC(C)C	H37Rv	BACTEC	inhibition	6.25 µg/mL	81%
CCCCCCC#Cc1cncc(-c2nnc(SCc3cc([N+](=O)[O-])cc([N+](=O)[O-])c3)n2C)c1	Erdman	resazurin	EC50		0.34 µM
CCCCCCC(=O)Nc1sc(Cc2ccc(OCc3c(Cl)cccc3Cl)cc2)cc1C(=O)O	H37Rv	resazurin	MIC90		>128 µM
CCC1(C)C(=O)N(C)C(=O)N1Br	H37Rv	BACTEC	inhibition	12.5 µg/mL	0%
Cc1c(NC(=O)CSc2nnc(-c3ccco3)n2-c2ccccc2)c(=O)n(-c2ccccc2)n1C	H37Rv	resazurin	MIC		>6.25 µg/mL
CN1OCC(N)C1=O			MIC		>2500 µM
O=c1c2ccccc2nc(-c2ccccc2)n1NC(=S)Nc1ccccc1	H37Rv	resazurin	MIC bound		>6.25 µg/mL
Nc1ccc(C(=O)O)c(O)c1			MIC		0.5 µg/mL
CSCN1OCC(N)C1=O			MIC		>2500 µM
Cc1c(NC(=O)CSc2nnc(-c3ccco3)n2-c2ccc(Cl)cc2)c(=O)n(-c2ccccc2)n1C	H37Rv	resazurin	MIC		>6.25 µg/mL
COc1ccc(C(=O)Nc2ccc(C(=O)NN3C(=O)CSC3c3ccc(F)cc3)cc2)cc1	H37Rv		MIC		>6.25 µg/mL
COc1ccc2c(c1)n([O-])c1ccccc1[n+]2=O	H37Rv	BACTEC	MIC bound		≤12.5 µg/mL
C=CCN1C(=O)CS/C1=N\NC(=O)c1ccc(NC(=O)c2ccc(OC)cc2)cc1	H37Rv		MIC		>6.25 µg/mL
Cn1cc(NC(=O)c2cc(NC(=O)CCCCCCCC(=O)Nc3cc(C(=O)Nc4cc(C(=O)NCCC(N)=[NH2+])n(C)c4)n(C)c3)cn2C)cc1C(=O)NCCC(N)=[NH2+]	H37Rv	BACTEC	inhibition	12.5 µg/mL	100%
NC[C@H]1O[C@H](O[C@H]2[C@H](O)[C@@H](O[C@H]3O[C@H](CO)[C@@H](O)[C@H](N)[C@H]3O)[C@H](N)C[C@@H]2N)[C@H](O)[C@@H](O)[C@@H]1O	72 strains	BACTEC	inhibition	2.5 µg/mL	50%
NC1CON(Cc2ccc(F)cc2)C1=O			MIC		>2500 µM
COc1ccc(Nc2nnc(-c3ccc(NC(=O)c4ccc(OC)cc4)cc3)o2)cc1	H37Rv		inhibition	6.25 µg/mL	0%
NC(=O)CN1OCC(N)C1=O			MIC		>2500 µM
Cc1cc(O)c(-c2ccc(Cl)cc2)c(=O)[nH]1	H37Ra		MIC		>256 µg/mL
O=C1CN(N2CCOCC2)CC(=O)N2CCCCN12	H37Rv	BACTEC	inhibition	12.5 µg/mL	22%
FC(F)(F)c1cc(CSc2nc3ccccc3[nH]2)cc(C(F)(F)F)c1	My 331/88		MIC		62 µM
Cc1c(NC(=O)CSc2nnc(-c3ccco3)n2-c2ccc(F)cc2)c(=O)n(-c2ccccc2)n1C	H37Rv	resazurin	MIC		>6.25 µg/mL
CCCN1CCN(c2cc(=O)c3nc4c(oc3c2)c2c(=O)c3c(O)c(C)c5c(c34)=C(O)[C@@](C)(O/C=C/[C@H](OC)[C@@H](C)[C@@H](OC(C)=O)[C@H](C)[C@H](O)[C@H](C)[C@@H](O)[C@@H](C)/C=C/C=C(/C)C(=O)N2)O5)CC1	H37Rv		MIC		0.035 µg/mL
CC1=C(C)C(=O)C(CC[C@](C)(O)CCC[C@H](C)CCC[C@H](C)CCCC(C)C)=C(C)C1=O	H37Rv	agar	MIC		56.1 µM
C=CCC1(C(C)C(OC(C)=O)c2ccc3c(c2)OCO3)CC(OC)C=CC1=O	H37Rv	BACTEC	inhibition	12.5 µg/mL	-1%
CC[C@H](CC[C@@H](C)[C@H]1CC[C@H]2[C@@H]3CC=C4C[C@@H](O)CC[C@]4(C)[C@H]3CC[C@]12C)C(C)C	H37Rv	agar	MIC		>350 µM
CN(C)c1cc2nc(C3CCCCC3)[nH]c2cc1NC(=O)c1ccc(OC(F)(F)F)c(F)c1F	H37Rv	resazurin	MIC		0.39 µg/mL
COC1=C(C)C(=O)c2cc(=O)n(C)cc2C1=O	H37Rv		MIC		3.125 µg/mL
NNC(=O)C(=O)NCc1ccco1	H37Rv	BACTEC	MIC bound		>12.5 µg/mL
O=[N+]([O-])c1ccc(C2=NOC3CCCCC23)o1			MIC		1 µg/mL
CC1(C)S[C@@H]2[C@H](NC(=O)[C@H](C(=O)[O-])c3ccsc3)C(=O)N2[C@H]1C(=O)[O-].[Na+].[Na+]	13 strains		MIC		>128 µg/mL
Cc1ccc(NCCNCCO)c2c(=O)c3ccccc3sc12	H37Rv	BACTEC	MIC bound		≤12.5 µg/mL
CO[C@H]1/C=C/O[C@@]2(C)Oc3c(C)c(O)c4c(O)c(c(/C=N/N5CCN(C)CC5)c(O)c4c3C2=O)NC(=O)/C(C)=C\C=C\[C@H](C)[C@H](O)[C@@H](C)[C@@H](O)[C@@H](C)[C@H](OC(C)=O)[C@@H]1C			MIC		0.5 µg/mL
CC(=O)NC[C@H]1CN(c2ccc(N3CCS(=O)(=O)CC3)c(F)c2)C(=O)O1	91-2225		MIC		0.5 µg/mL
C[C@@H]1CCC2C(C)(C)CCC[C@]2(C)[C@@]12CCC(=O)O2	H37Rv	BACTEC	MIC		25 µg/mL
Cc1c(NC(=O)CSc2nnc(-c3ccco3)n2C)c(=O)n(-c2ccccc2)n1C	H37Rv	resazurin	MIC		>6.25 µg/mL
NC1CONC1=O			MIC		300 µM
COc1ccc(C(=O)Nc2ccc(-c3nnc(Nc4ccccc4)o3)cc2)cc1	H37Rv		MIC		>6.25 µg/mL
Cc1cc(O)c(-c2ccccc2Cl)c(=O)[nH]1	H37Ra		MIC		128 µg/mL
S=C(S)N1CC[n+]2c(-c3ccccc3)csc21	H37Rv	resazurin	MIC bound		>6.25 µg/mL
CCCn1c(C)cc(O)c(-c2ccccc2)c1=O	H37Ra		MIC		64 µg/mL
O=C1CCC[C@@H]2[C@H]3C[C@@H](CN12)[C@@H]1C[C@@H](O)CCN1C3	H37Rv	BACTEC	inhibition	12.8 µg/mL	6%
c1ccc(CSc2nc3ccccc3[nH]2)cc1	My 331/88		MIC		250 µM
O=c1c2ccccc2c2ccccc2n1O	H37Rv	BACTEC	MIC bound		>12.5 µg/mL
Cc1cc2nccc(-c3ccccc3CON)c2c(C)c1-c1ccc(CN2CCOCC2)cc1		fluorescence	MIC90		20 µM

A second listing of 11 rows from above:

compound	strain	read by	endpoint	tested at	result
CCN(CC)CCNc1ccc(C)c2sc3c(OC)cccc3c(=O)c12	H37Rv	BACTEC	MIC bound		≤12.5 µg/mL
CCCCCCCCOc1cncc(-c2nnc(SCc3ccc(Cl)cc3)n2C)c1		resazurin	EC50		3.5 µM
FC(F)(F)c1cc(CSc2nc3ccccc3[nH]2)cc(C(F)(F)F)c1	My 331/88		MIC		62 µM
O=c1c2ccccc2nc(-c2ccccc2)n1NC(=S)Nc1ccccc1	H37Rv	resazurin	MIC bound		>6.25 µg/mL
Cc1cc(O)c(-c2ccc(F)cc2)c(=O)[nH]1	H37Ra		MIC		64 µg/mL
COc1ccc(CSc2nc3ccccc3[nH]2)cc1	My 331/88		MIC		>215 µM
CCCCCCCCCCCCCCCCCC(=O)O	H37Rv	agar	MIC		>350 µM
O=C(Nc1sc(Cc2ccc(OCc3c(Cl)cccc3Cl)cc2)cc1C(=O)O)c1ccccc1F	H37Rv	resazurin	MIC90		7.7 µM
CCN(CC)Cc1c2c(O)c3c(O)c(C)c4c(c3c1O)C(=O)[C@@](C)(O/C=C/[C@H](OC)[C@@H](C)[C@@H](OC(C)=O)[C@H](C)[C@H](O)[C@H](C)[C@@H](O)[C@@H](C)/C=C/C=C(/C)C(=O)N2)O4			MIC		0.18 µg/mL
O=[N+]([O-])c1cccc(CSc2nc3ccccc3[nH]2)c1	My 331/88		MIC		>32 µM
Cn1cc(NC(=O)c2cc(NC(=O)CCCCCCCC(=O)Nc3cc(C(=O)Nc4cc(C(=O)NCCC(N)=[NH2+])n(C)c4)n(C)c3)cn2C)cc1C(=O)NCCC(N)=[NH2+]	H37Rv	BACTEC	inhibition	12.5 µg/mL	100%

A number after MIC or MFC names an inhibition level or a share of isolates. Inhibition is in % at the dose shown (toxicity tests: loss of growth or viability). For "inactive" no cut-off is given. Conditions beyond the fields shown may differ between rows. MIC bound comes from a single tested concentration. An empty or dashed field is not shown.